{"sequences": {"note": "Chains of the proteins cited; added tags and fusions are not shown. Residues count along the entry.", "UniProt Q4Q5S8, 5-421 limits assumed": "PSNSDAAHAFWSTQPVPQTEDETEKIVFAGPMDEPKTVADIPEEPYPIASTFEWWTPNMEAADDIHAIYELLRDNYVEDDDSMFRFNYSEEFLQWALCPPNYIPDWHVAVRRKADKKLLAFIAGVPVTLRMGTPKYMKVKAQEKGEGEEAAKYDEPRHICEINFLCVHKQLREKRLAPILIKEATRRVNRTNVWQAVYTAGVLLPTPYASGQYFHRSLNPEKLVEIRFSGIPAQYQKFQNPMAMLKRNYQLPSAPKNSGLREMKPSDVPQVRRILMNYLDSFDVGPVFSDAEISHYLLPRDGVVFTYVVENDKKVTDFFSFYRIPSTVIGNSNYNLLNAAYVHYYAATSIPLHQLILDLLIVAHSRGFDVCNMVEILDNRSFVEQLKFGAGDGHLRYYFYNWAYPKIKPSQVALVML"}, "source": "paper PMC4107925", "about": "“Diverse modes of binding in structures of Leishmania major N-myristoyltransferase with selective inhibitors” (IUCrJ, 2014)", "biological_target": "LmNMT (Leishmania major, UniProt Q4Q5S8)", "test": "NMT enzyme inhibition assay (non-radioactive), L. major NMT", "type": "biochemical", "settings": "read-out: IC50 LmNMT"}
{"smiles": "O=C(Cc1ccc(F)cc1)Nc1ccc2[nH]cc(C3CCNCC3)c2c1", "values": [{"measurement": "IC50", "result": 550, "unit": "nM"}]}
